In patent US20120225135A1 (priority 2010, published 2012):

Tested on: E. coli
Test: Washing of cut lettuce, E. coli
Conditions: old system, chlorine at 100-200 ppm dosed as sodium hypochlorite 12.5%

## chlorine
  E. coli on cut lettuce: not always zero
